From patent US10526278B2, “Inhibitors of quorum sensing receptor LasR” (priority 2017, dated 2020) come the findings set out here.

Protein sequences, listed by entry. Tags and fused reporters are not part of them.
UniProt P25084, whole entry: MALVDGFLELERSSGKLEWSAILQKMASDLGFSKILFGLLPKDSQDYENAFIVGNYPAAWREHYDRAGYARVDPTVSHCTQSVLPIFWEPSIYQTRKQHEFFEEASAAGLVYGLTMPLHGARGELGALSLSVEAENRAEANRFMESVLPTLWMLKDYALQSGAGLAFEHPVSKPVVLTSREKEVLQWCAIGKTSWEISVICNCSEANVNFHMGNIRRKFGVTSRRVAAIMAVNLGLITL

Structures are written as SMILES.

The target of one experiment is LasR (Pseudomonas aeruginosa, UniProt P25084). The conditions noted are these: measured vs 25 nM OdDHL; for IC50: read-out: IC50 (95% CL).
For the next experiment, the system named is P. aeruginosa PAO1. As to the kind of experiment: Elastase B production in P. aeruginosa PAO1 culture supernatants (elastin-Congo red). The conditions noted are these: FIG. 12A; for inhibition of elastase in combination with PqsR inhibitor M64: compound 100 μM plus M64 20 μM. As to the method: FIG. 12A is a graph comparing inhibition of elastase (as % relative to DMSO) for certain compounds of the invention. The amount of indicated compound added was 100 μM. M64 alone or in combination was added in the amount of 20 μM. The assay is conducted as described in Welsh et al. (2016) for compounds shown as well as certain compounds in combination with compound M-64 (Starkey, M. et al. (2014)):
The amount of elastase B in P. aeruginosa culture supernatants was measured following a reported protocol (Welsh et al., 2017 and Geske et al., 2007b) with modifications. A 10 mL overnight culture of P. aeruginosa PAO1 was grown for 16 hr. An inoculating culture was prepared by diluting the overnight culture 1:100 into freshly prepared assay medium, and 2 mL aliquots of this subculture were added to each test tube (0.5% DMSO, final). The cultures were grown for 17 hr, and the final cell density measured by reading OD600. Aliquots of the final culture supernatant (50 μL) were added to the wells of a clear, plastic 96-well plate. To each well, 150 μL of 0.5% (w/v) elastin-Congo red conjugate (Elastin Products) in Tris buffer (10 mM Tris-HCl, 1 mM CaCl2) [pH 7.2]) was added. The plate was sealed with a polypropylene storage mat (Costar 3080) and incubated in a 37″C shaking incubator (200 rpm) attached to a Labquake rotator for 24 hr (in LB medium).
To quantify elastase B activity, the undigested elastin was pelleted by centrifugation of the assay plate at […] for 10 min, after which […] of the supernatant was transferred to a new, clear 96-well plate, and the absorbance at 490 nm measured. Media background absorbance (measured from a “no bacteria” control) was subtracted, the resulting values growth normalized by dividing by the final OD600, and the data plotted relative to a DMSO-treated positive control.

Consider `CCCCCCCCCCCCNC(=O)CC(=O)c1ccccc1`, for which, at LasR, the “Maximum Inhibition (95% CL)” value is listed as 83 (88-78) % and the IC50 (in general, the point on the concentration scale where inhibition reaches its midpoint) amounted to 2500 nM.

In the case of `CCCCCCCCCNC(=O)CC(=O)c1cccc(O)c1`, the “inhibition of elastase in combination with PqsR inhibitor M64” value (“inhibition of elastase in combination” for short) in the experiment with P. aeruginosa PAO1 was “inhibit elastase synergistically”. On LasR, the “Maximum Inhibition (95% CL)” value came out at 100% and the IC50 stood at 4700 nM.

In the case of `CCCCCCCCCCCCNC(=O)CC(=O)c1ccco1`, in the experiment on P. aeruginosa PAO1, the “inhibition of elastase in combination” value is “inhibit elastase synergistically”. Moreover, on LasR, the “Maximum Inhibition (95% CL)” value was 82 (85-78) % and the IC50 is 500 nM.

For `CCCCCCCCCNC(=O)CC(=O)c1cccc(F)c1`, at LasR, the “Maximum Inhibition (95% CL)” value is on record as 84 (100-70) % and the IC50 was determined as 8800 nM.

On to `CCCCCCCCCNC(=O)CC(=O)c1ccccc1F`, for which, on LasR, the “Maximum Inhibition (95% CL)” value is 74 (93-76) % and the half-inhibitory concentration (IC50) is 3200 nM.

Consider `CCCCCCCCCCNC(=O)CC(=O)c1ccccc1`, for which, on LasR, the “Maximum Inhibition (95% CL)” value is reported as 76 (85-67) % and the IC50 is 1100 nM.

Take `CCCCCCCCCNC(=O)CCc1ccccc1`: at LasR, the “Maximum Inhibition (95% CL)” value is listed as 80 (87-73) % and the IC50 was found to be 7500 nM.

With `CCCCCCCCCNC(=O)CC(=O)c1ccco1`, in the experiment on P. aeruginosa PAO1, the “inhibition of elastase in combination” value is “inhibit elastase synergistically”. For the same compound, the “inhibition of production of virulence factor elastase” value in the experiment with P. aeruginosa PAO1 (compound alone 100 μM, % elastase relative to DMSO) is reported as “inhibits the production of virulence factor elastase”. On LasR, the “Maximum Inhibition (95% CL)” value is reported as 74 (81-69) % and the IC50 worked out at 600 nM.
